Data source: PubChem BioAssay AID624099 (ICCB-Longwood, 2012)
Test: 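Knock-downs relieving repression by E2 of an HPV18 LCR luciferase reporter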 (primary screen). Cells: human C33A cervical carcinoma cells (HPV-negative) stably expressing BPV1 E2 and an HPV18 LCR luciferase reporter. Knock-down reagent: siRNA pool against human genes, 40 nM. Time to read-out: 72 h. Measurement: 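Per-well luciferase luminescence, z-scored on each plate against the plate mean and SD with control wells left out, then averaged across three replicate plates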. Direction: mean z-score and z-score: higher = stronger reporter signal, weaker E2 silencing. Rule for the call: 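Hit if mean z-score reaches 2 and two or more of three replicate z-scores also reach 2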.
The whole screen tested about 21,000 reagents; below is an unselected part. 497 of them (2.4%) count as active. 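Higher z means weaker E2 silencing; only reporter increases were scored, and knock-downs that hurt cell survival may mask genuine repressor factors.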

What did the screen give for CLU (clusterin)?
mean z-score: 1.17; z-score, replicate A: 1.06; z-score, replicate B: 1.24; z-score, replicate C: 1.22; activity call: inactive

With COX5B (cytochrome c oxidase subunit 5B), what does the deposit list?
mean z-score: 0.72; z-score, replicate A: 0.56; z-score, replicate B: 0.58; z-score, replicate C: 1.01; activity call: inactive

For FLNC (filamin C), what does the deposit list?
mean z-score: -0.22; z-score, replicate A: -0.42; z-score, replicate B: -0.17; z-score, replicate C: -0.08; activity call: inactive

How did the screen score CLPSL2 (colipase like 2)?
mean z-score: -0.86; z-score, replicate A: -1.11; z-score, replicate B: -0.89; z-score, replicate C: -0.58; activity call: inactive

For SRGAP2C (SLIT-ROBO Rho GTPase activating protein 2C), what does the deposit list?
mean z-score: -0.27; z-score, replicate A: 0.51; z-score, replicate B: -0.68; z-score, replicate C: -0.64; activity call: inactive

What is on record for GATA6 (GATA binding protein 6)?
mean z-score: -0.45; z-score, replicate A: -0.56; z-score, replicate B: -0.4; z-score, replicate C: -0.4; activity call: inactive

What is on record for ACSF2 (acyl-CoA synthetase family member 2)?
mean z-score: -0.28; z-score, replicate A: -0.04; z-score, replicate B: -0.52; z-score, replicate C: -0.27; activity call: inactive

What did the screen give for EIF3B (eukaryotic translation initiation factor 3 subunit B)?
mean z-score: -2.71; z-score, replicate A: -2.69; z-score, replicate B: -2.89; z-score, replicate C: -2.56; activity call: inactive

For CIZ1 (CDKN1A interacting zinc finger protein 1), how do the results read?
mean z-score: 0.43; z-score, replicate A: 0.01; z-score, replicate B: 0.69; z-score, replicate C: 0.6; activity call: inactive

Which result is listed for ZC3H11A (zinc finger CCCH-type containing 11A)?
mean z-score: -1.37; z-score, replicate A: -0.89; z-score, replicate B: -1.49; z-score, replicate C: -1.73; activity call: inactive

For C5orf15 (chromosome 5 open reading frame 15), what does the deposit list?
mean z-score: -0.13; z-score, replicate A: -0.32; z-score, replicate B: -0.32; z-score, replicate C: 0.26; activity call: inactive

With EGFL6 (EGF like domain multiple 6), what does the deposit list?
mean z-score: -0.76; z-score, replicate A: -0.9; z-score, replicate B: -0.8; z-score, replicate C: -0.58; activity call: inactive

Which result is listed for PSMA8 (proteasome 20S subunit alpha 8)?
mean z-score: 1.19; z-score, replicate A: 1.08; z-score, replicate B: 0.69; z-score, replicate C: 1.81; activity call: inactive

With RAD18 (RAD18 E3 ubiquitin protein ligase), what does the deposit list?
mean z-score: -0.74; z-score, replicate A: -0.83; z-score, replicate B: -0.83; z-score, replicate C: -0.56; activity call: inactive
